Pooled drug test results. Numbers come from NIAID ChemDB, via PubChem.

Shared fields: enzyme or target tests; agent: Pneumocystis carinii; protein: DHFR; read-out: IC50

ICn: concentration for n% inhibition.

SMILES,result
CN(C)C(=O)c1ccc(NCc2cnc3nc(N)nc(N)c3n2)cc1,>5 µM
COc1cc(OC)c(-c2nc3nc(N)nc(N)c3[nH]2)c(OC)c1,>31.5 µM
COc1cc(Cc2cnc(N)nc2N)cc(OCCNS(=O)(=O)c2ccc(NC(C)=O)cc2)c1Br,3.7 µM
CC1(C)N=C(N)N=C(N)N1c1ccc(OCC(=O)Nc2cccc(S(=O)(=O)F)c2)cc1,1 µM
Nc1nc(N)c2c(n1)CCC(CNc1cccc3ccccc13)C2,520 µM
C=COc1c(C=C)cc(Cc2cnc(N)nc2N)cc1C=C,3.4 µM
COc1ccc2nc(NC(=O)Nc3ccc(Cl)c(Cl)c3)sc2c1,>100 µM
Nc1nc(N)c2[nH]c(-c3ccc4ccccc4c3)nc2n1,>113 µM
O=C(O)c1c(Cl)c(Cl)c(Cl)c(Cl)c1C(=O)N(c1ccccc1)c1ccco1,>100 µM
Nc1nc(N)c2cc(NC3c4ccccc4CCc4ccccc43)ccc2n1,0.51 µM
COc1cc(CCN2CCc3nc(N)nc(N)c3C2)cc(OC)c1OC,30 µM
Nc1nc(N)c2cc(CN3c4ccccc4C=Cc4ccccc43)cnc2n1,0.043 µM
COc1c(-n2cccc2)cc(Cc2cnc(N)nc2N)cc1-n1cccc1,4.5 µM
COc1cc(-c2nc3nc(N)nc(N)c3[nH]2)cc(OC)c1O,>68 µM
Cc1c(CNc2ccc(Cl)c(C(=O)NC(CC(=O)O)C(=O)O)c2)ccc2nc(N)nc(N)c12,0.0054 µM
CCOc1cc(Cc2cnc(N)nc2N)cc(OCCNS(=O)(=O)c2ccc(NC(C)=O)cc2)c1OC,2.4 µM
Nc1nc(N)c2cc(CN3c4ccccc4C=Cc4ccccc43)ccc2n1,0.037 µM
Cc1c(CNc2ccc(C(=O)NC(CC(=O)O)C(=O)O)cc2)ccc2nc(N)nc(N)c12,0.00042 µM
COc1cc(Cc2cnc(N)nc2N)cc(OCCC(=O)NCC(=O)OCc2ccccc2)c1Br,7.9 µM
COc1ccc(-c2nc3nc(N)nc(N)c3[nH]2)c(OC)c1OC,>17 µM
COc1ccc(OC)c(CN2CCc3nc(N)nc(N)c3C2)c1,3.3 µM
CCOC(=O)c1ccc(NC(=O)Nc2cc(Cl)ccc2Oc2ccccc2)cc1,>100 µM
CC1(C)N=C(N)N=C(N)N1c1cccc(OCc2cccc(N)c2)c1,1.4 µM
CN(CC1CCc2nc(N)nc(N)c2C1)c1cccc2ccccc12,100 µM
O=C(O)c1cc2ccccc2c(Cc2c(O)c(C(=O)O)cc3ccccc23)c1O,96 µM
Cc1ccc2c(ccc3nc(N)nc(N)c32)c1,0.46 µM
O=C1C=CC(=Nc2cc(Cl)c(O)c(Cl)c2)C=C1Cl,226 µM
CN(Cc1cnc2nc(N)nc(N)c2n1)c1c(F)cc(C(=O)N[C@H](CCC(=O)O)C(=O)O)cc1F,0.00051 µM
CN(Cc1cnc2nc(N)nc(N)c2n1)c1c(Cl)cc(C(=O)N[C@@H](CCC(=O)O)C(=O)O)cc1Cl,0.000035 µM
COc1cc(Cc2cnc(N)nc2N)c2c(c1OC)OC=CC2,11.5 µM
CN(Cc1cnc2nc(N)nc(N)c2n1)c1c(Cl)cc(C(=O)N[C@@H](CCC(=O)O)C(=O)O)cc1Br,0.00021 µM
CN(Cc1cnc2nc(N)nc(N)c2n1)c1ccc(C(=O)N[C@H](CCC(=O)O)C(=O)O)cc1I,0.000104 µM
COc1cc(N2C(N)=NC(N)=NC2(C)C)cc(OC)c1OC,>26 µM
O=C1OC2(c3ccccc31)c1ccc(O)c(O)c1Oc1c2ccc(O)c1O,228 µM
CN(Cc1cnc2nc(N)nc(N)c2n1)c1ccc(C(=O)N[C@H](CCC(=O)O)C(=O)O)cc1I,0.000104 µM
O=[N+]([O-])c1ccc(-c2cc(Cl)c3cc(S(=O)(=O)F)ccc3n2)cc1,~150 µM
Nc1nc(N)c2nc(CSc3ccccc3)cnc2n1,9.5 µM
CC(=O)Nc1ccc(C(=O)O)c(C(=O)c2ccccc2Cl)c1,>100 µM
CCOc1cc(Cc2cnc(N)nc2N)cc(OCC)c1-n1cccc1,2.4 µM

Rows are shuffled and stem from different studies.